Results of unrelated studies side by side (data: NIAID ChemDB).

All rows: tests on isolated targets; species: Toxoplasma gondii

Percent inhibition refers to the dose given; in toxicity tests it is the harm to the cells. Conditions beyond the fields shown may differ between rows. ICn is the concentration giving n% inhibition. An empty or dashed field is not shown.

smiles,strain,protein,measure,dose,result
CC1(C)N=C(N)N=C(N)N1c1ccc(CCC(=O)Nc2ccc(S(=O)(=O)F)cc2)cc1,RH,DHFR,IC50,,0.03 µM
COc1cc(OC)nc(NS(=O)(=O)c2ccc(N)cc2)n1,,DHPS,IC50,,1800 µM
Ic1ncnc2nc[nH]c12,RH,Phosphoribosyltransferase,inhibition,900 µM,<10%
O=c1cc[nH]cc1,RH,Uracil phosphoribosyltransferase,inhibition,2000 µM,<10%
Nc1ccc(S(=O)(=O)Nc2ccccc2C(=O)O)cc1,,DHPS,IC50,,740 µM
Nc1nc(N)c(-c2ccc(Cl)cc2)c(CNc2cccc([N+](=O)[O-])c2)n1,RH,DHFR,IC50,,1.49 µM
C1=CN2NC=NC2N=C1,RH,Phosphoribosyltransferase,IC50,,>900 µM
O=Nc1c(O)[nH]c(=O)[nH]c1=O,RH,Uracil phosphoribosyltransferase,inhibition,2000 µM,<5%
Cc1nc2ccccc2nc1NS(=O)(=O)c1ccc(N)cc1,,DHPS,IC50,,1680 µM
CC1(C)N=C(N)N=C(N)N1c1cccc(CCCCc2cccc(N)c2)c1,RH,DHFR,IC50,,0.015 µM
CCCCn1c(=O)cc[nH]c1=O,RH,Uracil phosphoribosyltransferase,inhibition,2000 µM,<5%
CNc1nc2nc[nH]c2c(=O)[nH]1,RH,Phosphoribosyltransferase,inhibition,900 µM,<10%
Clc1ncccn1,RH,Uracil phosphoribosyltransferase,inhibition,2000 µM,<5%
CCC1CSC(NS(=O)(=O)c2ccc(N)cc2)=N1,,DHPS,IC50,,>700 µM
CN(Cc1cnc2nc(N)nc(N)c2n1)c1c(Cl)cc(C(=O)N[C@@H](CCC(=O)O)C(=O)O)cc1Br,RH,DHFR,IC50,,0.00093 µM
O=c1cc[nH]c(=S)[nH]1,RH,Uracil phosphoribosyltransferase,Ki,,4400 µM
Nc1ncc[nH]1,RH,Phosphoribosyltransferase,IC50,,>900 µM
O=c1c[n+]([O-])cc[nH]1,RH,Uracil phosphoribosyltransferase,Ki,,270 µM
CC1(C)N=C(N)N=C(N)N1c1ccc(N(CCCl)CCCl)cc1,RH,DHFR,IC50,,0.33 µM
c1c[nH]cn1,RH,Phosphoribosyltransferase,inhibition,900 µM,<10%
O=c1cccc[nH]1,RH,Uracil phosphoribosyltransferase,IC50,,>2000 µM
Nc1nccc(=O)[nH]1,RH,Phosphoribosyltransferase,Ki,,1060 µM
CC1(C)N=C(N)N=C(N)N1c1ccc(CCCCc2ccccc2)cc1,RH,DHFR,IC50,,0.026 µM
O=C1CC(=O)NC(=S)N1,RH,Uracil phosphoribosyltransferase,inhibition,2000 µM,<5%
CCn1cnc2c(N)ncnc21,RH,Phosphoribosyltransferase,IC50,,>900 µM
Nc1ccnc(=S)[nH]1,RH,Uracil phosphoribosyltransferase,inhibition,2000 µM,<10%
CN(Cc1cnc2nc(N)nc(N)c2n1)c1ccc(C(=O)N[C@H](CCC(=O)O)C(=O)O)cc1I,RH,DHFR,IC50,,0.0016 µM
CC(C)Cn1c(=O)n(C)c(=O)c2[nH]cnc21,RH,Phosphoribosyltransferase,inhibition,900 µM,<10%

4 of the rows above, restated:

smiles | strain | protein | measure | dose | result
O=c1cccc[nH]1 | RH | Uracil phosphoribosyltransferase | IC50 |  | >2000 µM
CCCCn1c(=O)cc[nH]c1=O | RH | Uracil phosphoribosyltransferase | inhibition | 2000 µM | <5%
Nc1ccc(S(=O)(=O)Nc2ccccc2C(=O)O)cc1 |  | DHPS | IC50 |  | 740 µM
O=C1CC(=O)NC(=S)N1 | RH | Uracil phosphoribosyltransferase | inhibition | 2000 µM | <5%